Measurements as given in PMC5749897.

Assays:
Test in all cases: flow cytometry
Conditions in all cases: read off a plot
AR1A = biological target: AR1A
HCV1 = biological target: HCV1
AP33 = biological target: AP33
AR2A = biological target: AR2A
A4 = biological target: A4
AR3A = biological target: AR3A

“wild-type HCV E1E2 (genotype 1a, strain H77) expression construct with C-terminal V5 epitope tag F442A” was tested. Which percent of parent (AR1A) did it give?
The percent of parent was 110 % of WT.

And the percent of parent (HCV1)?
The percent of parent was 120 % of WT.

And the percent of parent (AP33)?
Its percent of parent is 96 % of WT.

What about the percent of parent (AR2A) of the same substance?
Its percent of parent is 120 % of WT.

For “wild-type HCV E1E2 (genotype 1a, strain H77) expression construct with C-terminal V5 epitope tag G495A”, which percent of parent (A4) is on record?
The percent of parent was 120 % of WT.

“wild-type HCV E1E2 (genotype 1a, strain H77) expression construct with C-terminal V5 epitope tag N548A” was tested. Which percent of parent (A4) did it give?
Its percent of parent is 110 % of WT.

And the percent of parent (HCV1)?
The percent of parent was 105 % of WT.

How did the percent of parent (AR1A) turn out when “wild-type HCV E1E2 (genotype 1a, strain H77) expression construct with C-terminal V5 epitope tag G436A” was run?
Its percent of parent is 110 % of WT.

And the percent of parent (HCV1)?
Its percent of parent is 85 % of WT.

What about the percent of parent (AP33) of the same substance?
The percent of parent was 93 % of WT.

And the percent of parent (AR2A)?
Its percent of parent is 80 % of WT.

With “wild-type HCV E1E2 (genotype 1a, strain H77) expression construct with C-terminal V5 epitope tag W437A” as the substance, how does the percent of parent (AR1A) read?
The percent of parent was 130 % of WT.

And the percent of parent (AR2A)?
Its percent of parent is 130 % of WT.

Which percent of parent (AR1A) does the source give for “wild-type HCV E1E2 (genotype 1a, strain H77) expression construct with C-terminal V5 epitope tag L438A” here?
The percent of parent was 120 % of WT.

What about the percent of parent (AR2A) of the same substance?
The percent of parent was 120 % of WT.

With “wild-type HCV E1E2 (genotype 1a, strain H77) expression construct with C-terminal V5 epitope tag W549A” as the substance, how does the percent of parent (A4) read?
The percent of parent was 96 % of WT.

What about the percent of parent (HCV1) of the same substance?
The percent of parent was 88 % of WT.

With “wild-type HCV E1E2 (genotype 1a, strain H77) expression construct with C-terminal V5 epitope tag L427A” as the substance, how does the percent of parent (AR1A) read?
The percent of parent was 110 % of WT.

And the percent of parent (HCV1)?
The percent of parent was 78 % of WT.

And the percent of parent (AP33)?
The percent of parent was 63 % of WT.

And the percent of parent (AR2A)?
Its percent of parent is 98 % of WT.

With “wild-type HCV E1E2 (genotype 1a, strain H77) expression construct with C-terminal V5 epitope tag P545A” as the substance, how does the percent of parent (A4) read?
Its percent of parent is 88 % of WT.

How did the percent of parent (A4) turn out when “wild-type HCV E1E2 (genotype 1a, strain H77) expression construct with C-terminal V5 epitope tag P544A” was run?
Its percent of parent is 85 % of WT.

Which percent of parent (AR1A) does the source give for “wild-type HCV E1E2 (genotype 1a, strain H77) expression construct with C-terminal V5 epitope tag N428A” here?
The percent of parent was 130 % of WT.

And the percent of parent (HCV1)?
The percent of parent was 71 % of WT.

What about the percent of parent (AP33) of the same substance?
Its percent of parent is 62 % of WT.

What about the percent of parent (AR2A) of the same substance?
The percent of parent was 90 % of WT.

For “wild-type HCV E1E2 (genotype 1a, strain H77) expression construct with C-terminal V5 epitope tag T519A”, which percent of parent (A4) is on record?
The percent of parent was 120 % of WT.

What about the percent of parent (HCV1) of the same substance?
Its percent of parent is 98 % of WT.

Which percent of parent (A4) does the source give for “wild-type HCV E1E2 (genotype 1a, strain H77) expression construct with C-terminal V5 epitope tag Y632A” here?
Its percent of parent is 85 % of WT.

What about the percent of parent (HCV1) of the same substance?
The percent of parent was 110 % of WT.

“wild-type HCV E1E2 (genotype 1a, strain H77) expression construct with C-terminal V5 epitope tag C503A” was tested. Which percent of parent (HCV1) did it give?
The percent of parent was 110 % of WT.

What about the percent of parent (AP33) of the same substance?
Its percent of parent is 110 % of WT.

And the percent of parent (AR2A)?
The percent of parent was 110 % of WT.

Which results are given for “wild-type HCV E1E2 (genotype 1a, strain H77) expression construct with C-terminal V5 epitope tag T425A”?
percent of parent (AR3A): 7 % of WT; percent of parent (AR1A): 105 % of WT; percent of parent (HCV1): 88 % of WT; percent of parent (AP33): 78 % of WT; percent of parent (AR2A): 78 % of WT

With “wild-type HCV E1E2 (genotype 1a, strain H77) expression construct with C-terminal V5 epitope tag L441A” as the substance, how does the percent of parent (AR1A) read?
Its percent of parent is 100 % of WT.

What about the percent of parent (HCV1) of the same substance?
Its percent of parent is 120 % of WT.

And the percent of parent (AP33)?
The percent of parent was 110 % of WT.

What about the percent of parent (AR2A) of the same substance?
Its percent of parent is 100 % of WT.

“wild-type HCV E1E2 (genotype 1a, strain H77) expression construct with C-terminal V5 epitope tag D520A” was tested. Which percent of parent (AR1A) did it give?
The percent of parent was 170 % of WT.

What about the percent of parent (HCV1) of the same substance?
Its percent of parent is 107 % of WT.

What about the percent of parent (AP33) of the same substance?
The percent of parent was 100 % of WT.

And the percent of parent (AR2A)?
The percent of parent was 130 % of WT.

Which results are given for “wild-type HCV E1E2 (genotype 1a, strain H77) expression construct with C-terminal V5 epitope tag Y485A”?
percent of parent (HCV1): 105 % of WT; percent of parent (AR2A): 96 % of WT
